Results of unrelated studies side by side (data: NIAID ChemDB).

Common to all: growth or infection tests; agent: HIV-1; method: cytopathic effect / XTT; read-out: EC50

An empty or dashed field is not shown. Neighbouring rows are from separate reports. ECn is the concentration giving n% inhibition of infection, replication or growth.

| smiles | mutations | strain or isolate | cells | value |
|---|---|---|---|---|
| CCCCOC(=O)c1ccc(NC(=O)NCCc2ccccc2)cc1 |  |  | MT-4 | >10 µg/mL |
| Cc1cn(CCCCCCCCCCCCOc2ccc3cc2Cc2cc(ccc2OCCCCCCCCCCCCn2cc(C)c(=O)[nH]c2=O)N=Cc2cccc(n2)C=Nc2ccc(OCCCCCCCCCCCCn4cc(C)c(=O)[nH]c4=O)c(c2)Cc2cc(ccc2OCCCCCCCCCCCCn2cc(C)c(=O)[nH]c2=O)N=Cc2cccc(n2)C=N3)c(=O)[nH]c1=O |  | RF | CEM + CEM-SS | >25 µg/mL |
| COc1ccc(NC(=O)c2ccccc2SSc2ccccc2C(=O)Nc2ccc(OC)cc2)cc1 |  |  | CEM | 5 µM |
| Nc1nc(Cl)c2nnn([C@H]3C=CC[C@@H](CO)C3)c2n1 |  | RF | CEM + CEM-SS | >50 µg/mL |
| Clc1ccc(C2ON=C(c3ccccc3)N2C23CC4CC(CC(C4)C2)C3)cc1 |  |  | CEM | >6.3 µM |
| CC(=O)N[C@@H](CCCCN(Cc1ccccc1)C(=O)N(CCCl)N=O)C(=O)NCc1ccccc1 |  | IIIB | CEM-IW + CEM | >100 µM |
| CCOc1nc(N)nc2c1ncn2[C@H]1C=C[C@@H](CO)C1 |  | IIIB | MT-2 | 5.78 µM |
| Cn1cc(N)cc1C(=O)Nc1ccc(S(=O)(=O)O)c2cc(S(=O)(=O)O)ccc12 |  | RF | CEM + CEM-SS | >300 µM |
| CC(C)NS(=O)(=O)c1ccc(NC(=O)c2ccccc2SSc2ccccc2C(=O)Nc2ccc(S(=O)(=O)NC(C)C)cc2)cc1 |  |  | CEM | 16 µM |
| O=C1NC(=S)N[C@@H]1Cc1ccc(O)cc1 |  |  | MT-4 | >10 µg/mL |
| CCOc1ccc(F)c(CCNC(=S)Nc2ncc(C(F)(F)F)s2)c1Cl | RT-L100I | IIIB | MT-4 | >2 µM |
| O=C(O)CC[C@H](NC(=O)c1ccccc1SSc1ccccc1C(=O)N[C@@H](CCC(=O)O)C(=O)O)C(=O)O |  | IIIB | CEM | >100 µM |
| Nc1nc2c(ncn2[C@H]2C=C[C@@H](CO)C2)c(=O)[nH]1 |  |  | MT-2 | 0.66 µg/mL |
| C=CCNC(=O)N(CCC)CCC[C@H](NC(C)=O)C(=O)NCc1ccccc1 |  | IIIB | CEM-IW + CEM | >100 µM |
| Cn1cc(NC(=O)c2cc([N+](=O)[O-])cn2C)cc1C(=O)Nc1cc(S(=O)(=O)O)c2cc(S(=O)(=O)O)cc(S(=O)(=O)O)c2c1 |  | RF | CEM + CEM-SS | 256 µM |
| CCC(C)C(NC(=O)c1ccccc1SSc1ccccc1C(=O)NC(C(=O)O)C(C)CC)C(=O)O | Pyridone-resistant | A17 | MT-4 | 5.1 µM |
| CCCc1cc(=O)oc2c3c(c4c(c12)OC(C)(C)CC4)O[C@H](C)[C@@H](C)C3=O |  | TEKI | AA5 | >10 µM |
| CC1(C)N=C(N)N=C(N)N1c1cccc(CCCCOc2ccccc2)c1 |  |  | CEM | 0.00525 µM |
| CC(=O)N[C@@H](CCCCNC(=O)OCc1ccccc1)C(=O)O |  | IIIB | CEM-IW + CEM | >100 µM |
| O=C(NCCc1ccccc1)Nc1ncco1 |  |  | MT-4 | >10 µg/mL |
| Nc1nc(Cl)c2ncn([C@H]3C=CC[C@@H](CO)C3)c2n1 |  | RF | CEM + CEM-SS | >50 µg/mL |
| CC(C)=CCN1Cc2cc(Cl)cc3[nH]c(=O)n(c23)C[C@@H]1C | RT-Y181C | IIIB | MT-4 | 124 µM |
| O=C(c1ccccc1SSc1ccccc1C(=O)N1CCSCC1)N1CCSCC1 |  |  | CEM | >42 µM |
| CC(=O)N[C@@H](CCCCNCc1ccccc1)C(=O)NCc1ccccc1 |  | IIIB | CEM-IW + CEM | >100 µM |
| Brc1cccc(C2ON=C(c3ccccc3)N2C23CC4CC(CC(C4)C2)C3)c1 |  |  | CEM | >200 µM |
| CC(C)C[C@H](NC(=O)c1ccccc1SSc1ccccc1C(=O)N[C@@H](CC(C)C)C(=O)OCc1ccccc1)C(=O)OCc1ccccc1 |  | IIIB | CEM | >73 µM |
| FC(F)(Sc1ncccn1)c1nc2ccccc2o1 |  | RF | CEM + CEM-SS | 3.14 µM |
| O=C(O)CCCCNC(=O)c1ccccc1SSc1ccccc1C(=O)NCCCCC(=O)O |  | IIIB | CEM | 1.7 µM |
| FC(F)(Sc1ccccn1)c1nc2ccccc2o1 |  | RF | CEM + CEM-SS | 29.2 µM |
| O=C1[C@@H](Cc2ccc(O)cc2)NC(=S)N1c1ccccc1 |  |  | MT-4 | >10 µg/mL |
| Fc1cccc(C2ON=C(c3ccccc3)N2C23CC4CC(CC(C4)C2)C3)c1 |  |  | CEM | >6.3 µM |
| Cc1occc1C(=S)Nc1ccc(Cl)c(C(=O)OC(C)C)c1 | RT-Y181C | NL4-3 | CEM + CEM-SS | 1.2 µM |
| CC(C)=CCOc1cc(NC(=S)c2ccsc2C)ccc1Cl | RT-P236L | HEPT-resistant (RT P236L) | CEM + CEM-SS | 0.02 µM |
| CC(=O)N[C@@H](CCCCNC(=O)N(CCCl)N=O)C(=O)NCc1ccccc1 |  | IIIB | CEM-IW + CEM | >100 µM |
| COC(=O)c1ccccc1SSc1ccccc1C(=O)OC |  |  | CEM | >9.3 µM |
| Cn1cc(NC(=O)Nc2cc(C(=O)Nc3cc(C(=O)Nc4cc(S(=O)(=O)O)c5cc(S(=O)(=O)O)cc(S(=O)(=O)O)c5c4)n(C)c3)n(C)c2)cc1C(=O)Nc1cc(C(=O)Nc2cc(S(=O)(=O)O)c3cc(S(=O)(=O)O)cc(S(=O)(=O)O)c3c2)n(C)c1 |  | A17 | CEM + CEM-SS | 1 µM |
| CCC(C)Oc1ccc(NC(=O)c2ccccc2SSc2ccccc2C(=O)Nc2ccc(OC(C)CC)cc2)cc1 |  |  | CEM | 30 µM |
| O=c1[nH]cnc2c1ncn2[C@H]1C=CC[C@@H](CO)C1 |  | RF | CEM + CEM-SS | >50 µg/mL |
| CNc1nc(N)nc2c1ncn2[C@H]1C=C[C@@H](CO)C1 |  | IIIB | MT-2 | >20 µM |
| CC=CCOc1cc(NC(=S)c2ccoc2C)ccc1OC |  | NL4-3 | CEM + CEM-SS | 0.03 µM |
| Nc1nc(N)c2ncn([C@H]3C=CC[C@@H](CO)C3)c2n1 |  | RF | CEM + CEM-SS | >50 µg/mL |
| Cc1ccnc(NC(=O)NCCc2ccccc2)n1 |  |  | MT-4 | <10 µg/mL |
| Nc1nc(N)c2ncn([C@H]3C=C[C@@H](CO)C3)c2n1 |  |  | MT-2 | 2.9 µg/mL |
| Cc1occc1C(=S)Nc1ccc(Cl)c(/C=N/OC(C)(C)C)c1 | RT-K101E | NL4-3 | CEM + CEM-SS | 1 µM |
| Nc1nc2c(ncn2[C@H]2C=C[C@@H](CO)C2)c(=O)[nH]1 |  | IIIB | MT-2C + MT-2 | 0.32 µg/mL |
| CO[C@H]1N([C@H]2C=C[C@@H](CO)O2)C(=O)NC(=O)[C@]1(C)I |  |  | CEM | 0.375 µM |
| COc1cc(-c2ccc(N=Nc3ccc4c(S(=O)(=O)O)cc(S(=O)(=O)O)c(N)c4c3O)c(OC)c2)ccc1N=Nc1ccc2c(S(=O)(=O)O)cc(S(=O)(=O)O)c(N)c2c1O |  | PM16 | CEM + CEM-SS | 0.6 µM |
| Nc1nc(N)c2ncn([C@H]3C=C[C@@H](CO)C3)c2n1 |  | IIIB | MT-2 | 2.9 µg/mL |
| CC(=O)N[C@@H](CCCN(Cc1ccccc1)C(=O)N(C)N=O)C(=O)NCc1ccccc1 |  | IIIB | CEM-IW + CEM | >100 µM |
| Cc1ccnc(SC(F)(F)c2nc3ccccc3o2)n1 | RT-T139I | CALO(RT-T139I) | CEM + CEM-SS | 0.43 µM |
| C=CCOc1cc(NC(=S)c2sccc2C)ccc1Cl |  | RF | CEM + CEM-SS | 0.235 µM |
| Cn1cc(NC(=O)Nc2cc(C(=O)Nc3cc(C(=O)Nc4ccc(P(=O)(O)O)c5cc(P(=O)(O)O)ccc45)n(C)c3)n(C)c2)cc1C(=O)Nc1cc(C(=O)Nc2ccc(P(=O)(O)O)c3cc(P(=O)(O)O)ccc23)n(C)c1 |  | BaL | PBMC | 6.1 µM |
| CC(C)=CCN1CC(C)Cn2c(=S)[nH]c3cccc1c32 |  | 6R | CEM(SS) + CEM-SS | 0.85 µM |
| CC(=O)N[C@@H](CCCCNC(=O)N(C)N=O)C(=O)NCc1ccccc1 |  | IIIB | CEM-IW + CEM | >100 µM |
| CO[C@H]1N([C@H]2C[C@H](N=[N+]=[N-])[C@@H](CO)O2)C(=O)NC(=O)[C@]1(C)Br |  |  | CEM | 5.79 µM |
| Oc1ccc2cc1Cc1cc(ccc1O)N=Cc1cccc(n1)C=Nc1ccc(O)c(c1)Cc1cc(ccc1O)N=Cc1cccc(n1)C=N2 |  | RF | CEM + CEM-SS | >25 µg/mL |
| Cn1cc(NC(=O)Nc2cc(C(=O)Nc3cc(C(=O)Nc4cc(C(=O)Nc5ccc(S(=O)(=O)O)c6cc(S(=O)(=O)O)ccc56)n(C)c4)n(C)c3)n(C)c2)cc1C(=O)Nc1cc(C(=O)Nc2cc(C(=O)Nc3ccc(S(=O)(=O)O)c4cc(S(=O)(=O)O)ccc34)n(C)c2)n(C)c1 |  | RF | CEM + CEM-SS | 0.2 µM |
| CC(=O)Nc1ccc(SSc2ccc(NC(C)=O)cc2C(N)=O)c(C(N)=O)c1 |  |  | CEM | 5 µM |
| NC(=O)CNC(=O)c1ccccc1SSc1ccccc1C(=O)NCC(N)=O |  | IIIB | CEM | 1.4 µM |
| Cc1ccsc1C(=S)Nc1ccc(Cl)c(/C=N/OC(C)C)c1 |  | RF | CEM + CEM-SS | 0.071 µM |
| O=C1[C@@H](Cc2ccccc2)NC(=S)N1c1ccccc1 |  |  | MT-4 | <100 µg/mL |
| CC(Cc1ccccc1)NC(=S)Nc1nccs1 |  | IIIB | MT-4 | 1.2 µM |
| O=C1NC(=S)N[C@@H]1c1ccc(-c2ccccc2)cc1 |  |  | MT-4 | >10 µg/mL |
| CC(=O)Sc1ccccc1C(=O)NCCC(N)=O |  | IIIB | CEM | 0.6 µM |
| Cc1occc1C(=S)Nc1ccc(Cl)c(C(=O)OCC2CC2)c1 | RT-K103N | NL4-3 | CEM + CEM-SS | 1.4 µM |
| O=c1cc(-c2cccc3c2Sc2ccccc2S3)oc(N2CCOCC2)c1 |  | RT-K65R L74V M184V | C8166 | 2.8 µM |
| Cc1cn(CCCCCCCCCCCCOc2ccc([N+](=O)[O-])cc2Cc2cc([N+](=O)[O-])ccc2OCCCCCCCCCCCCn2cc(C)c(=O)[nH]c2=O)c(=O)[nH]c1=O |  | RF | CEM + CEM-SS | >25 µg/mL |
| S=C(NCCc1ccccc1)N1CCCc2ccccc21 |  |  | MT-4 | >10 µg/mL |
| OC[C@@H]1CC=C[C@H](n2nnc3c(Cl)ncnc32)C1 |  | RF | CEM + CEM-SS | >50 µg/mL |
| CC(C)Oc1nc(N)nc2c1ncn2[C@H]1C=C[C@@H](CO)C1 |  | IIIB | MT-2 | 9.41 µM |
| NS(=O)(=O)c1ccc(NC(=O)c2ccc(SSc3ccc(C(=O)Nc4ccc(S(N)(=O)=O)cc4)cc3)cc2)cc1 |  |  | CEM | >100 µM |
| Nc1nc2c(ncn2[C@H]2C=C[C@@H](CO)C2)c(=O)[nH]1 |  | IIIB | MT-2 | 0.15 µg/mL |
| CC(C)=CCOc1cc(NC(=S)c2ccoc2C)ccc1Cl |  | IIIB | AA5 | 0.02 µM |
| CSCC[C@](C)(NC(=O)c1ccccc1SSc1ccccc1C(=O)N[C@@](C)(CCSC)C(=O)O)C(=O)O |  | IIIB | CEM | 46 µM |
| CCNc1nc(N)nc2c1ncn2[C@H]1C=C[C@@H](CO)C1 |  | IIIB | MT-2 | 11.8 µM |
| [O-][n+]1onc2ncnc(N3CC[N+]4(CC3)CC[N+]3(CCN(c5ncnc6no[n+]([O-])c56)CC3)CC4)c21 |  | 6S | MT-2 | 1.4 µM |

5 of the rows above, restated:

smiles,mutations,strain or isolate,cells,value
CCOc1ccc(F)c(CCNC(=S)Nc2ncc(C(F)(F)F)s2)c1Cl,RT-L100I,IIIB,MT-4,>2 µM
CCOc1nc(N)nc2c1ncn2[C@H]1C=C[C@@H](CO)C1,,IIIB,MT-2,5.78 µM
Brc1cccc(C2ON=C(c3ccccc3)N2C23CC4CC(CC(C4)C2)C3)c1,,,CEM,>200 µM
Cn1cc(N)cc1C(=O)Nc1ccc(S(=O)(=O)O)c2cc(S(=O)(=O)O)ccc12,,RF,CEM + CEM-SS,>300 µM
CSCC[C@](C)(NC(=O)c1ccccc1SSc1ccccc1C(=O)N[C@@](C)(CCSC)C(=O)O)C(=O)O,,IIIB,CEM,46 µM